Results from publication PMC11026403 (Communications Biology, 2024).

Key:
[1] = tested on: PA endonuclease domain (residues 1-200); settings: from PA sequence: absence of E23G/K, I38T/F/M/S/L/N, E119D substitutions
[2] = target: A/bottlenose dolphin/Florida/UFTt2203/2022 (H5N1) NA-S246N (Influenza A virus, UniProt Q9Q0U7, S247N)

Row | SMILES | Susceptibility to PA protein inhibitor, in words [1] | IC50 ([2]; dolphin H5N1 virus with NA-S246N, MUNANA substrate, four dose-response curves) [nM] | NAI susceptibility classification (WHO guidance) ([2]; fold over A/Denmark/524/2009 (H1N1)pdm09, virus with S246N neuraminidase substitution) | Susceptibility of the virus to the NAI, in words ([2]; in vitro, dolphin H5N1 virus containing NA-S246N)
1 | COC(=O)OCOc1c2n(ccc1=O)N([C@@H]1c3ccccc3SCc3c1ccc(F)c3F)[C@@H]1COCCN1C2=O | susceptible | – | – | –
2 | CCC(CC)O[C@@H]1C=C(C(=O)O)C[C@H](N)[C@H]1NC(C)=O [oseltamivir, oseltamivir carboxylate] | – | 7.51 | reduced inhibition (10–100 fold, reduced inhibition) | reduced susceptibility
